Results of unrelated studies side by side (data: NIAID ChemDB).

Common to all: growth or infection tests; organism: Herpes simplex virus 2

Blank or dashed fields: not listed here. ECn: concentration that inhibits the pathogen or its effect by n%. Rows are shuffled and stem from different studies. Two numbers with a dash give a range or band.

structure,method,cell line,read-out,strain,value
Nn1c(-c2cn(-c3ccccc3)nc2-c2ccccc2)n[nH]c1=S,cytopathic effect,HEL,EC50,G,>80 µg/mL
CCOC(=O)CC1OP(=O)(OC[C@H]2O[C@@H](n3cc(/C=C/Br)c(=O)[nH]c3=O)C[C@@H]2O)Oc2cccc(Cl)c21,plaque count,VERO,EC50,G (TK+),>128 µg/mL
O=c1[nH]c(=O)n([C@@H]2O[C@H](CO)[C@@H](O)[C@@H]2O)cc1/C=C/Br,plaque count,CCRF-HSV-B,EC50,MS,>100 µg/mL
C[C@@]1(O)[C@H](O)[C@@H](COP(=O)(O)OP(=O)(O)OP(=O)(O)O)O[C@H]1n1ccc2c(N)ncnc21,cytopathic effect,VERO,EC50,-,>320 µM
N#CC1=CSc2nnc(-c3cn(-c4ccccc4)nc3-c3ccccc3)n2N=C1N,cytopathic effect,HEL,EC50,G,>80 µg/mL
CC#Cc1cn([C@@H]2O[C@H](COP(=O)(O)Oc3ccc(OC)cc3)[C@@H](O)[C@@H]2O)c(=O)[nH]c1=O,plaque count,VERO,EC50,SC16,>100 µM
O=c1[nH]c(=O)n([C@H]2C[C@H](O)[C@@H](CO[P@]3(=O)OCc4cccc(-c5ccccc5)c4O3)O2)cc1/C=C/Br,plaque count,VERO,EC50,G (TK+),>128 µg/mL
O=c1c2ncn(COC(CO)CO)c2nc2[nH]c(-c3ccccc3)cn12,cytopathic effect,E6SM,EC50,LYONS,0.005 µg/mL
Cc1[nH]c2nc3c(ncn3COCCO[Si](C)(C)C(C)(C)C)c(=O)n2c1C(c1ccccc1)(c1ccccc1)c1ccccc1,cytopathic effect,-,EC50,G,>10 µg/mL
FC(F)(F)Oc1ccc(-c2cc3ccccn3c2)cc1,plaque count,VERO,EC50,186,>100 µM
CC#Cc1cn([C@@H]2O[C@H](COP(=O)(OCC(Cl)(Cl)Cl)Oc3ccccc3)[C@@H](O)[C@@H]2O)c(=O)[nH]c1=O,plaque count,VERO,EC50,SC16,>100 µM
CCc1cn([C@@H]2S[C@H](CO)[C@@H](O)[C@@H]2F)c(=O)[nH]c1=O,plaque count,CCRF-HSB-2,EC50,MS,0.25 µM
CC1(C)[C@@H](CO)CC[C@@]1(C)Cn1nnc2c(=O)[nH]cnc21,cytopathic effect,E6SM,EC50,G,>400 µg/mL
Fc1ccc2cc(-c3ccccc3)cn2c1,plaque count,VERO,EC50,186,>100 µM
O=c1c2ncn(COCCO)c2[nH]c2ncc(CO)n12,cytopathic effect,-,EC50,G,>3.2 µg/mL
Cc1cn([C@@H]2S[C@@H](CO)C[C@@H]2N=[N+]=[N-])c(=O)[nH]c1=O,-,-,EC50,-,>100 µg/mL
Nc1nc2c(ncn2COCCO)c(=O)[nH]1,cytopathic effect,HFF,EC50,14893 KOS (acyclovir-resistant),20 µg/mL
CCc1cn([C@@H]2O[C@H](CO)[C@@H](O)[C@@H]2F)c(=O)[nH]c1=O,plaque count,CCRF-HSB-2,EC50,MS,0.62 µM
O=P1(O)OCC2O[C@@H](n3cnc4c(SCc5ccccc5)ncnc43)[C@H](O)C2O1,-,-,MIC,MS,10 µg/mL
COC(=O)[C@H]1NC(=O)[C@H]2NC(=O)[C@H](NC(=O)[C@@H]3NC(=O)[C@H]4NC(=O)[C@H](NC(=O)[C@H](N)c5ccc(O)c(c5)Oc5cc4cc(O)c5C)[C@H](O)c4ccc(cc4)Oc4cc3cc(c4O)Oc3ccc(cc3)[C@H]2O[C@@H]2C[C@@H](N)[C@@H](O)[C@H](C)O2)c2ccc(O)c(c2)-c2c(O)cc(O)cc21,cytopathic effect,HEL,EC50,G,>200 µM
[N-]=[N+]=N[C@H]1C[C@H](CO)S[C@@H]1n1cnc2c(=O)[nH]cnc21,-,-,EC50,-,>100 µg/mL
Nc1nc2c(ncn2[C@@H]2C=C[C@H](CO)[C@@H](O)C2)c(=O)[nH]1,-,-,EC50,G,0.05 µg/mL
CCOP(=O)(OCC)C1=NOC(n2cc(F)c(=O)[nH]c2=O)C1,plaque count,VERO,EC50,-,>100 µM
O=[N+]([O-])c1cccc(-c2cc3ccccn3c2)c1,plaque count,VERO,EC50,186,>100 µM
CCCc1cn([C@H]2C[C@H](O)[C@@H](CO)O2)c(=O)[nH]c1=O,plaque count,HELA BU,EC50,333,<10 µM
CC#Cc1cn([C@@H]2O[C@H](COP(=O)(O)OCCCCCCCCCCCCCCCC)[C@@H](O)[C@@H]2O)c(=O)[nH]c1=O,plaque count,VERO,EC50,SC16,100 µM
Nc1nc2c(ncn2[C@H]2CC[C@H](O)[C@H]2CO)c(=O)[nH]1,cytopathic effect,VERO,EC50,MS,0.8 µg/mL
Nc1ccn(C[C@@H](CO)OCP(=O)(O)O)c(=O)n1,plaque count,VERO,EC50,G,13–25 µg/mL
Cc1cn([C@H]2C[C@@H](N=[N+]=[N-])[C@@H](CO)O2)c(=O)[nH]c1=O,plaque count,-,EC50,333,>100 µM
[N-]=[N+]=N[C@@H]1C[C@@H](CO)S[C@H]1n1cnc2c(Cl)ncnc21,-,-,EC50,-,>100 µg/mL
COc1ccc(-c2[nH]c3nc4c(ncn4COCCO)c(=O)n3c2-c2ccc(C(c3ccccc3)c3ccccc3)cc2)cc1,cytopathic effect,-,EC50,G,>16 µg/mL
Nc1nc2c(ncn2COCCO)c(=O)[nH]1,plaque count,HEL,EC50,UW/TK-,250 µM
[N-]=[N+]=N[C@H]1C[C@H](CO)S[C@H]1n1ccc(=O)[nH]c1=O,-,-,EC50,-,>100 µg/mL
c1ccc(-c2nn3c(-c4cn(-c5ccccc5)nc4-c4ccccc4)nnc3s2)cc1,cytopathic effect,HEL,EC50,G,>3.2 µg/mL
CC1(C)[C@@H](CO)CC[C@@]1(C)Cn1cc(Br)c(=O)[nH]c1=O,cytopathic effect,E6SM,EC50,G,>400 µg/mL
N#Cc1ccc(-c2cc3ccccn3c2)cc1,plaque count,VERO,EC50,186,>100 µM
CSc1ncnc2c1ncn2[C@@H]1OC2COP(=O)(O)OC2[C@H]1O,-,-,MIC,MS,3.2 µg/mL
Nc1ncnc2c1ncn2C[C@H](O)CO,cytopathic effect,PRK,EC50,333,4–10 µg/mL
Cc1nn2c(-c3cn(-c4ccccc4)nc3-c3ccccc3)nnc2s1,cytopathic effect,HEL,EC50,G,>16 µg/mL
Nc1nc2c(ncn2COC(CO)CF)c(=O)[nH]1,plaque count,VERO,EC50,G,>100 µM
Nc1nc(Cl)c2c(ncn2[C@@H]2O[C@H](CO)[C@@H](O)[C@H]2O)n1,cytopathic effect,VERO,EC50,MS,20 µg/mL
c1ccc(-c2cc3ccccn3c2)cc1,plaque count,VERO,EC50,186,>100 µM
CC#Cc1cn([C@@H]2O[C@H](COP(=O)(O)Oc3ccc(F)cc3)[C@@H](O)[C@@H]2O)c(=O)[nH]c1=O,plaque count,VERO,EC50,SC16,>100 µM
O=c1[nH]n2c(-c3cn(-c4ccccc4)nc3-c3ccccc3)nnc2sc1=O,cytopathic effect,HEL,EC50,G,80 µg/mL
O=c1[nH]c(=O)n([C@@H]2C[C@H](CO)[C@@H](O)C2)cc1Br,cytopathic effect,VERO,EC50,MS,20 µg/mL
C/C=C/c1cn([C@H]2C[C@H](O)[C@@H](CO)O2)c(=O)[nH]c1=O,plaque count,HELA BU,EC50,333,<10 µM
O=c1c2ncn(COC(CO)CO)c2nc2[nH]c(-c3ccccc3)cn12,cytopathic effect,-,EC50,LYONS,0.005 µg/mL
Nc1nc2c(ncn2COCCO)c(=O)[nH]1,cytopathic effect,HEF,EC50,-,0.53 µM
Nc1ncnc2c1ncn2[C@@H]1O[C@H](CO)[C@@H](O)[C@@H]1O,cytopathic effect,HEP II,EC50,-,3.2 µg/mL
CCCCOC(=O)c1ccc2cc(-c3ccccc3)cn2c1,plaque count,VERO,EC50,186,>100 µM
O=c1[nH]c(=O)n([C@@H]2O[C@H](CO)[C@@H](O)[C@@H]2O)cc1/C=C/Br,plaque count,HEL,EC50,UW-268,230 µM
CC1(C)[C@@H](CO)CC[C@@]1(C)Cn1nnc2c(Cl)ncnc21,cytopathic effect,E6SM,EC50,G,>400 µg/mL
O=c1[nH]c(=O)n([C@H]2C[C@H](O)[C@@H](COP3(=O)OCc4ccc5ccccc5c4O3)O2)cc1/C=C/Br,plaque count,VERO,EC50,G (TK+),>128 µg/mL
CC#Cc1cn([C@@H]2O[C@H](COP(=O)(O)Oc3ccccc3Cl)[C@@H](O)[C@@H]2O)c(=O)[nH]c1=O,plaque count,VERO,EC50,SC16,>100 µM
Cc1cn([C@@H]2O[C@H](CO)[C@@H](O)[C@@H]2F)c(=O)[nH]c1=O,plaque count,CCRF-HSB-2,EC50,MS,0.11 µM
COc1ccc(-c2cn3c(=O)c4ncn(COC(CO)CO)c4nc3[nH]2)cc1,cytopathic effect,-,EC50,196,0.08 µg/mL
CCCCc1ccc2cc(-c3ccccc3)cn2c1,plaque count,VERO,EC50,186,>100 µM
CC#Cc1cn([C@@H]2O[C@H](COP(=O)(O)OCCCCCCCCCCCC)[C@@H](O)[C@@H]2O)c(=O)[nH]c1=O,plaque count,VERO,EC50,SC16,>100 µM

The last 5 rows once more:

structure	method	cell line	read-out	strain	value
CC#Cc1cn([C@@H]2O[C@H](COP(=O)(O)Oc3ccccc3Cl)[C@@H](O)[C@@H]2O)c(=O)[nH]c1=O	plaque count	VERO	EC50	SC16	>100 µM
Cc1cn([C@@H]2O[C@H](CO)[C@@H](O)[C@@H]2F)c(=O)[nH]c1=O	plaque count	CCRF-HSB-2	EC50	MS	0.11 µM
COc1ccc(-c2cn3c(=O)c4ncn(COC(CO)CO)c4nc3[nH]2)cc1	cytopathic effect	-	EC50	196	0.08 µg/mL
CCCCc1ccc2cc(-c3ccccc3)cn2c1	plaque count	VERO	EC50	186	>100 µM
CC#Cc1cn([C@@H]2O[C@H](COP(=O)(O)OCCCCCCCCCCCC)[C@@H](O)[C@@H]2O)c(=O)[nH]c1=O	plaque count	VERO	EC50	SC16	>100 µM